The values below come from paper PMC4481223.

In this experiment the target is fused Cp (genetically-fused dimer of the hepatitis B virus core protein assembly domain) (hepatitis B virus). The experiment can be described thus: native MS; non-covalent ESI-MS of the disassembly reaction without prior SEC: fused Cp capsids in 4 M urea, 50 mM ammonium acetate pH 9.5, 5 mM DTT, 4 °C ~16 h, then dialysed into 50 mM ammonium acetate pH 9.5, 5 mM DTT.

For orientation: stoichiometry N means the number of molecules, sites or subunits per partner or assembly. As to “fused Cp (genetically-fused dimer of the hepatitis B virus core protein assembly domain)”, the stoichiometry N is 4 copies.
